Compound potency records, mixed from different reports. Data source: NIAID ChemDB in PubChem.

Common to all: tests in culture; species: HIV-1; cell line: PBMC; endpoint: EC90

ECn is the concentration giving n% inhibition of infection, replication or growth. Blank or dashed fields: not listed here. Conditions beyond the fields shown may differ between rows. a–b is a range or a potency band.

SMILES	changes	read by	strain	value
NNC(=O)NN1C(=O)c2cc(S(=O)(=O)[O-])cc3c(N)c(S(=O)(=O)[O-])cc(c23)C1=O		trypan blue	LAV	>100 µM
[N-]=[N+]=N[C@H]1[C@@H](O)[C@H](n2cnc3c(N)ncnc32)O[C@@H]1CO				48.3 µM
Cc1c(O)cccc1C(=O)N[C@@H](CSc1ccccc1)[C@H](O)CN1C[C@H]2CCCC[C@H]2C[C@H]1C(=O)NC(C)(C)C		p24	IIIB	0.084 µM
CC(=O)N1CCC(C(=O)N(CCCN2CCC(Cc3ccc(C(N)=O)cc3)CC2)c2ccc(C)c(Cl)c2)CC1		p24	SW X4 clinical isolate	>10 µM
C[C@]1(CCP(=O)(O)O)CO[C@@H](n2cnc3c(=O)[nH]c(N)nc32)C1			LAI	95 µM
Nc1nc(NC2CC2)c2ncn([C@H]3C=C[C@@H](CO)O3)c2n1		cytopathic effect / MTT	LAI	17 µM
Cc1cn([C@H]2C[C@H](N=[N+]=[N-])[C@@H](CO)O2)c(=O)[nH]c1=O	RT-M184V		3TC-resistant (RT M184V)	0.003 µM
Nc1ncnc2c1ncn2[C@H]1OC[C@@](F)(C=CP(=O)(O)O)[C@H]1F		MTT	LAI	90 µM
CC(=O)c1cn(CC=C(CO)CO)c(=O)[nH]c1=O		RT activity	LAI	39 µM
Nc1ncnc2c1ncn2[C@@H]1O[C@@H](CO)C=C1F		RT activity	LAV	332 µM
Nc1nc2c(ncn2[C@@H]2C[C@H](OCP(=O)(O)O)CC2(F)F)c(=O)[nH]1		RT activity	LAI	95 µM
CC(C)Nc1cccnc1N1CCN(C(=O)c2cc3cc(NS(C)(=O)=O)ccc3[nH]2)CC1		p24	Isolate 461	10 µM
Nc1nc(=O)n([C@@H]2C[Se][C@H](CO)O2)cc1F	RT-M184V	RT activity	BRU(RT-M184V)	>50 µM
Cc1cn([C@H]2C[C@H](N=[N+]=[N-])[C@@H](CO)O2)c(=O)[nH]c1=O		RT activity	LAV	0.0158–0.024 µM
[N-]=[N+]=N[C@H]1[C@@H](O)[C@H](n2ccc(N)nc2=O)O[C@@H]1CO				>100 µM
Cc1cn([C@H]2C[C@H](N=[N+]=[N-])[C@@H](CO)O2)c(=O)[nH]c1=O		p24	6 clinical isolates AZT-resistant	1.6 µM
Cc1cn([C@H]2C[C@H](N=[N+]=[N-])[C@@H](CO)O2)c(=O)[nH]c1=O		p24	IIIB	0.04 µM
Cc1cn([C@H]2C[C@H](N=[N+]=[N-])[C@@H](CO)O2)c(=O)[nH]c1=O				0.014 µM
O[C@]12C=C(Cc3cnccn3)[C@@H]3CCN(CCCC/C=C\CC1)C[C@@]31C[C@@H]3CCCCCCN3C12		RT activity	LAV	>100 µM
O=c1[nH]cnc2c1ncn2[C@H]1CC[C@@H](CO)O1		p24	IIIB	2.9 µM
CC(C)CN(C[C@@H](O)[C@H](Cc1ccccc1)NC(=O)[C@@H](NC(=O)CNCc1cccc(F)c1)C(C)(C)C)S(=O)(=O)c1ccc(N)cc1		virus yield	IIIB	0.04 µM
CC#CCN1C(=O)[C@H]([C@@H](O)C2CCCCC2)NC(=O)C12CCN(Cc1c(C)nn(-c3ccccc3)c1C)CC2		p24	BAL R5	0.324 µM
CCCCCCCCc1cc2cn(C/C=C/C(O)CO)c(=O)nc2o1		RT activity	LAI	>100 µM
CC[C@H]1OC(=O)[C@H](C)[C@@H](O[C@H]2C[C@@](C)(OC)[C@@H](O)[C@H](C)O2)[C@H](C)[C@@H](O[C@@H]2O[C@H](C)C[C@H](N(C)C)[C@H]2O)[C@](C)(O)C[C@@H](C)/C(=N\OCOCCOC)[C@H](C)[C@@H](O)[C@]1(C)O		RT activity	LAV	>1000 µM
CC(C)(C)NC(=O)[C@H]1N(C(=O)[C@@H](O)[C@H](Cc2ccccc2)NC(=O)[C@H](CC(N)=O)NC(=O)COc2cccc3ccccc23)CSC1(C)C		p24	Clinical isolates	0.23 µM
O=c1[nH]cnc2c1ncn2[C@H]1CC[C@@H](CO)O1		p24	Subtype B isolate	1.2 µM
Cc1cn([C@@H]2C[C@@H](N=[N+]=[N-])[C@H](COP(=O)(O)OC[C@H]3O[C@@H](n4cc(C)c(=O)[nH]c4=O)C[C@@H]3N=[N+]=[N-])O2)c(=O)[nH]c1=O		RT activity	LAV	0.048 µM
CC(C)(C)NC(=O)[C@@H]1C[C@@H]2CCCC[C@@H]2CN1C[C@@H](O)[C@H](Cc1ccccc1)NC(=O)[C@H](CC(N)=O)NC(=O)c1ccc2ccccc2n1		p24	BAL R5	0.06 µM
Nc1ncnc2c1ncn2C1CC(CCP(=O)(O)O)(C(F)(F)F)CO1		RT activity	LAI	90 µM
C[C@@]1(O)[C@H](O)[C@@H](CO)O[C@H]1n1c2ncnc(N)c2c2c(N)ncnc21			LAI	≥100 µM
CCOP(=O)(CO[C@H]1C[C@@H](n2cnc3c(N)ncnc32)C(F)(F)C1)OCC		RT activity	LAI	90 µM
Nc1nc2c(ncn2C2CC(CCP(=O)(O)O)(C(F)(F)F)CO2)c(=O)[nH]1		RT activity	LAI	95 µM
CCc1cc(NCc2nc3c(Cl)ccc(Cl)c3o2)c(=O)[nH]c1C	RT-K70R	p24	Clinical isolate (RT K70R)	0.4 µM
CC(C)(C)NC(=O)[C@@H]1CN(Cc2cccnc2)CCN1C[C@@H](O)C[C@@H](Cc1ccccc1)C(=O)N[C@H]1c2ccccc2C[C@H]1O	PR-L10I K20R M36I/V P63L/S L90M	p24	BR59 (PR L10I K20R M36I/V P63L/S L90M)	0.015 µM
CCCCN1C(=O)C(CC2CCCCC2)NC(=O)C12CCN(Cc1ccc3c(c1)OCCO3)CC2		p24	JR-FL R5	>1 µM
CC(C)Nc1cccnc1N1CCN(C(=O)c2cc3cc(NS(C)(=O)=O)ccc3[nH]2)CC1		p24	JR-CSF	0.04 µM
[N-]=[N+]=N[C@H]1[C@@H](O)[C@H](n2cnc3c(=O)[nH]c(N)nc32)O[C@@H]1CO				>100 µM
Cc1cn([C@H]2C[C@H](N=[N+]=[N-])[C@@H](CO)O2)c(=O)[nH]c1=O		p24	Isolate 461	0.3 µM
O[C@]12C=C(Cc3cccc4cnccc34)[C@@H]3CCN(CCCC/C=C\CC1)C[C@@]31C[C@@H]3CCCCCCN3C12		RT activity	LAV	57.9 µM
Cc1cn([C@H]2C[C@H](N=[N+]=[N-])[C@@H](CO)O2)c(=O)[nH]c1=O		cytopathic effect / MTT		0.02 µM
Cc1c(O)cccc1C(=O)N[C@@H](CSc1ccccc1)[C@H](O)CN1C[C@H]2CCCC[C@H]2C[C@H]1C(=O)NC(C)(C)C		p24	IIIB	0.0272 µM
O=c1[nH]cnc2c1ncn2[C@H]1CC[C@@H](CO)O1		p24	NL-XM WT	28 µM
Nc1c(S(=O)(=O)O)cc2c3c(cc(S(=O)(=O)O)cc13)C(=O)N(NC(=O)N/N=C\c1ccc(-c3ccc(C=O)cc3)cc1)C2=O		trypan blue	LAV	93.4 µM
Cc1ncnc(C)c1C(=O)N1CCC(C)(N2CCN([C@@H](Cc3ccccc3)c3ccc(C(F)(F)F)cc3)[C@@H](C)C2)CC1			JRFL Clinical isolates	0.00019 µM
CC(C)Nc1cccnc1N1CCN(C(=O)c2cc3cc(NS(C)(=O)=O)ccc3[nH]2)CC1		p24	JR-CSF	0.0393 µM
CC(C)(C)NC(=O)[C@@H]1CN(Cc2cccnc2)CCN1C[C@@H](O)C[C@@H](Cc1ccccc1)C(=O)N[C@H]1c2ccccc2C[C@H]1O		p24 / ELISA	BaL	0.075 µM
Cc1cn([C@H]2C[C@H](N=[N+]=[N-])[C@@H](COP(=O)(O)OC[C@H]3CC[C@@H](n4cnc5c(N)ncnc54)O3)O2)c(=O)[nH]c1=O		RT activity	LAV	0.0011 µM
O=c1[nH]c(=O)n([C@@H]2C=C[C@@H](CO)O2)cc1F		RT activity	LAI	23 µM
Nc1ncnc2c1ncn2[C@H]1CC[C@@H](CO)O1		RT activity	LAV	2.14 µM
Nc1ccn([C@H]2O[C@@H](CO)C=C2F)c(=O)n1	RT-M184V		3TC-resistant (RT M184V)	>100 µM
Nc1nc(=O)n([C@H]2C=C[C@@H](CO)O2)cc1Br		RT activity	LAI	>10 µM
Cc1cn([C@H]2C[C@H](N=[N+]=[N-])[C@@H](CO)O2)c(=O)[nH]c1=O		p24	Subtype B isolate	0.01 µM
Cc1cn([C@H]2C[C@H](N=[N+]=[N-])[C@@H](CO)O2)c(=O)[nH]c1=O	RT-K65R L74V M184V Y115F	p24	XM-ABC-resistant	0.04 µM
Nc1nc2c(ncn2[C@H]2OC[C@@](F)(C=CP(=O)(O)O)[C@H]2F)c(=O)[nH]1		MTT	LAI	95 µM
CCCCN1C(=O)[C@@H]([C@H](O)C2CCCCC2)NC(=O)C12CCN(Cc1ccc(Oc3ccc(C(=O)O)cc3)cc1)CC2		p24	JR-FL R5	0.004 µM
CCCCCCCCC#Cc1cn(CC=C(CO)CO)c(=O)[nH]c1=O		RT activity	LAI	72.3 µM
CC(C)Nc1cccnc1N1CCN(C(=O)c2cc3cc(NS(C)(=O)=O)ccc3[nH]2)CC1		RT activity	Group O isolate	31 µM
Cc1ccnc2c1NC(=O)c1cccnc1N2C1CC1		p24 / ELISA	BaL	0.127 µM
CCC[C@@]1(CCc2ccccc2)CC(O)=C([C@H](CC)c2cccc(NS(=O)(=O)c3ccc(C(F)(F)F)cn3)c2)C(=O)O1		p24	6 clinical isolates AZT-resistant	0.04 µM
CC[C@H]1OC(=O)[C@H](C)[C@@H](O[C@H]2C[C@@](C)(OC)[C@@H](O)[C@H](C)O2)[C@H](C)[C@@H](O[C@@H]2O[C@H](C)C[C@H](N(C)C)[C@H]2O)[C@](C)(OC)C[C@@H](C)C(=O)[C@H](C)[C@@H](O)[C@]1(C)O		RT activity	LAV	>600 µM
N#CC[C@H](C1CCCC1)n1cc(-c2ncnc3[nH]ccc23)cn1		p24 / ELISA		4.7 µM
CCCCCCCCC#Cc1cn(COCCO)c(=O)[nH]c1=O		RT activity	LAI	~105 µM
O=C(O)C(=O)CC(=O)c1ccc2c(ccc3ccccc32)c1		RT activity	LAI	>100 µM
CC(C)(C)NC(=O)[C@@H]1C[C@@H]2CCCC[C@@H]2CN1C[C@@H](O)[C@H](Cc1ccccc1)NC(=O)[C@H](CC(N)=O)NC(=O)c1ccc2ccccc2n1		RT activity	Group O isolate	0.026 µM
Cc1cn([C@H]2C[C@H](N=[N+]=[N-])[C@@H](CO)O2)c(=O)[nH]c1=O			LAI	>100 µM
CCCCCc1ccc(C#Cc2cn(C/C=C/C(O)CO)c(=O)[nH]c2=O)cc1		RT activity	LAI	91.6 µM
Cc1ccc(-c2ccc3c(c2)C=C(C(=O)Nc2ccc(C[N+](C)(C)C4CCOCC4)cc2)CCC3)cc1		p24 / ELISA	BaL	0.332 µM
CCCCN1C(=O)C(CC2CCCCC2)NC(=O)C12CCN(Cc1ccc3c(c1)OCCO3)CC2		p24	BaL	0.903 µM
Cc1ccnc2c1NC(=O)c1cccnc1N2C1CC1		p24	IIIB	1.095 µM
CCCCCc1ccc(-c2cc3cn(CC=C(CO)CO)c(=O)nc3o2)cc1		RT activity	LAI	13.07 µM
Nc1nc(=O)n([C@@H]2C=C(F)[C@H](CO)S2)cc1F	RT-M184V	RT activity	3TC-resistant (RT M184V)	>100 µM

10 of the rows above, restated:

| SMILES | changes | read by | strain | value |
|---|---|---|---|---|
| CC(C)(C)NC(=O)[C@@H]1C[C@@H]2CCCC[C@@H]2CN1C[C@@H](O)[C@H](Cc1ccccc1)NC(=O)[C@H](CC(N)=O)NC(=O)c1ccc2ccccc2n1 |  | p24 | BAL R5 | 0.06 µM |
| Cc1cn([C@H]2C[C@H](N=[N+]=[N-])[C@@H](CO)O2)c(=O)[nH]c1=O |  |  | LAI | >100 µM |
| CC[C@H]1OC(=O)[C@H](C)[C@@H](O[C@H]2C[C@@](C)(OC)[C@@H](O)[C@H](C)O2)[C@H](C)[C@@H](O[C@@H]2O[C@H](C)C[C@H](N(C)C)[C@H]2O)[C@](C)(O)C[C@@H](C)/C(=N\OCOCCOC)[C@H](C)[C@@H](O)[C@]1(C)O |  | RT activity | LAV | >1000 µM |
| Cc1cn([C@@H]2C[C@@H](N=[N+]=[N-])[C@H](COP(=O)(O)OC[C@H]3O[C@@H](n4cc(C)c(=O)[nH]c4=O)C[C@@H]3N=[N+]=[N-])O2)c(=O)[nH]c1=O |  | RT activity | LAV | 0.048 µM |
| C[C@@]1(O)[C@H](O)[C@@H](CO)O[C@H]1n1c2ncnc(N)c2c2c(N)ncnc21 |  |  | LAI | ≥100 µM |
| CCc1cc(NCc2nc3c(Cl)ccc(Cl)c3o2)c(=O)[nH]c1C | RT-K70R | p24 | Clinical isolate (RT K70R) | 0.4 µM |
| O=c1[nH]c(=O)n([C@@H]2C=C[C@@H](CO)O2)cc1F |  | RT activity | LAI | 23 µM |
| CC(C)Nc1cccnc1N1CCN(C(=O)c2cc3cc(NS(C)(=O)=O)ccc3[nH]2)CC1 |  | p24 | JR-CSF | 0.04 µM |
| [N-]=[N+]=N[C@H]1[C@@H](O)[C@H](n2cnc3c(N)ncnc32)O[C@@H]1CO |  |  |  | 48.3 µM |
| Cc1cn([C@H]2C[C@H](N=[N+]=[N-])[C@@H](CO)O2)c(=O)[nH]c1=O |  | p24 | Subtype B isolate | 0.01 µM |